A mixed list of measured activities; the numbers were collected in NIAID ChemDB.

All rows: whole-cell or culture tests; organism: Mycobacterium avium intracellulare; read-out: MIC

Rows are shuffled and stem from different studies.

compound	strain	result
CN(C)CCCN1c2ccccc2Sc2ccc(Cl)cc21	T 7360	25 µg/mL
CC(C)N=c1cc2n(-c3ccc(Cl)cc3)c3ccccc3nc-2cc1Nc1ccc(Cl)cc1	98562	0.5 µg/mL
CCNC(=O)[C@@H](NC(=O)Cc1ccccc1)[C@@H]1N[C@@H](C(=O)NCCNC(=O)[C@@H]2N[C@@H]([C@H](NC(=O)Cc3ccccc3)C(=O)NCC)SC2(C)C)C(C)(C)S1	CIPT 140310054	50 µg/mL
CCCCCCCCNC(=O)O[C@H]1C(O[C@@H]2[C@@H](C)[C@H](O[C@H]3C[C@@](C)(OC)[C@@H](OC(C)=O)[C@H](C)O3)[C@@H](C)C(=O)O[C@H](CC)[C@@](C)(O)[C@H](O)[C@@H](C)/C(=N/OCCCC3CCCCC3)[C@H](C)CC2(C)O)O[C@H](C)C[C@@H]1N(C)C	20067	0.39 µg/mL
CC[C@H]1OC(=O)[C@H](C)[C@@H](OC2C[C@@](C)(OC)[C@@H](O)[C@H](C)O2)[C@H](C)[C@@H](O[C@@H]2O[C@H](C)C[C@H](N(C)C)[C@H]2O)C(C)(O)C[C@@H](C)/C(=N\OCCCOc2ccccc2)[C@H](C)[C@@H](O)[C@]1(C)O	20066 (clarithromycin-susceptible)	1.56 µg/mL
C[C@@H](O)[C@H]1C(=O)N2C(C(=O)O)=C(SCCN=CN)C[C@H]12	CIPT 140310034	<5 µg/mL
CCNC(=O)O[C@H]1C(O[C@@H]2[C@@H](C)[C@H](O[C@H]3C[C@@](C)(OC)[C@@H](OC(C)=O)[C@H](C)O3)[C@@H](C)C(=O)O[C@H](CC)[C@@](C)(O)[C@H](O)[C@@H](C)/C(=N/OCCCC3CCCCC3)[C@H](C)CC2(C)O)O[C@H](C)C[C@@H]1N(C)C	20066	12.5 µg/mL
CC1(C)S[C@@H]2[C@H](NC(=O)C(C(=O)O)c3ccccc3)C(=O)N2[C@H]1C(=O)O	CIPT 140310023	50 µg/mL
CC[C@H]1OC(=O)[C@H](C)[C@@H](OC2C[C@@](C)(OC)[C@@H](O)[C@H](C)O2)[C@H](C)[C@@H](O[C@@H]2O[C@H](C)C[C@H](N(C)C)[C@H]2O)C(C)(O)C[C@@H](C)/C(=N\OCCSc2ccccc2)[C@H](C)[C@@H](O)[C@]1(C)O	20066 (clarithromycin-susceptible)	3.13 µg/mL
CCCCCCCCCCCCCCN(C)C(=O)O[C@H]1C(O[C@@H]2[C@@H](C)[C@H](O[C@H]3C[C@@](C)(OC)[C@@H](OC(C)=O)[C@H](C)O3)[C@@H](C)C(=O)O[C@H](CC)[C@@](C)(O)[C@H](O)[C@@H](C)/C(=N/OCCCC3CCCCC3)[C@H](C)CC2(C)O)O[C@H](C)C[C@@H]1N(C)C	20066	0.2 µg/mL
OCCN1CCN(CC/C=C2\c3ccccc3Sc3ccc(Cl)cc32)CC1	E 48067	12.5 µg/mL
NC[C@H]1O[C@H](O[C@H]2[C@H](O)[C@@H](O[C@H]3O[C@H](CO)[C@@H](O)[C@H](N)[C@H]3O)[C@H](N)C[C@@H]2N)[C@H](O)[C@@H](O)[C@@H]1O	CIPT 140310023	10 µg/mL
COc1ccc2c(c1)N(C[C@H](C)CN(C)C)c1ccccc1S2	T 7360	50 µg/mL
CCCCO/N=C1\[C@H](C)CC(C)(O)[C@H](O[C@@H]2O[C@H](C)C[C@H](N(C)C)[C@H]2O)[C@@H](C)[C@H](O[C@H]2C[C@@](C)(OC)[C@@H](OC(C)=O)[C@H](C)O2)[C@@H](C)C(=O)O[C@H](CC)[C@@](C)(O)[C@H](O)[C@H]1C	20066 (clarithromycin-susceptible)	>50 µg/mL
C#CCNC(=O)O[C@H]1C(O[C@@H]2[C@@H](C)[C@H](O[C@H]3C[C@@](C)(OC)[C@@H](OC(C)=O)[C@H](C)O3)[C@@H](C)C(=O)O[C@H](CC)[C@@](C)(O)[C@H](O)[C@@H](C)/C(=N/OCCCC3CCCCC3)[C@H](C)CC2(C)O)O[C@H](C)C[C@@H]1N(C)C	20066	0.2 µg/mL
CC[C@H]1OC(=O)[C@H](C)[C@@H](O[C@H]2C[C@@](C)(OC)[C@@H](OC(C)=O)[C@H](C)O2)[C@H](C)[C@@H](O[C@@H]2O[C@H](C)C[C@H](N(C)C)[C@H]2OC(=O)NN(C)Cc2ccccc2)C(C)(O)C[C@@H](C)/C(=N\OCCCC2CCCCC2)[C@H](C)[C@@H](O)[C@]1(C)O	20066 (clarithromycin-susceptible)	1.56 µg/mL
CC/C=C/CCNC(=O)O[C@H]1C(O[C@@H]2[C@@H](C)[C@H](O[C@H]3C[C@@](C)(OC)[C@@H](OC(C)=O)[C@H](C)O3)[C@@H](C)C(=O)O[C@H](CC)[C@@](C)(O)[C@H](O)[C@@H](C)/C(=N/OCCCC3CCCCC3)[C@H](C)CC2(C)O)O[C@H](C)C[C@@H]1N(C)C	20073	0.1 µg/mL
CC(=O)NC[C@H]1CN(c2ccc(N3CCN(c4ccc([N+](=O)[O-])s4)CC3)c(F)c2)C(=O)O1	926/98	<0.12 µg/mL
CC[C@H]1OC(=O)[C@H](C)[C@@H](OC(=O)c2ccccc2)[C@H](C)[C@@H](O[C@@H]2O[C@H](C)C[C@H](N(C)C)[C@H]2O)C(C)(O)C[C@@H](C)/C(=N\OCCCOc2ccccc2)[C@H](C)[C@@H](O)[C@]1(C)O	20066 (clarithromycin-susceptible)	6.25 µg/mL
OCCN1CCN(CC/C=C2\c3ccccc3Sc3ccc(C(F)(F)F)cc32)CC1	E 48067	12.5 µg/mL
CO[C@H]1/C=C/O[C@@]2(C)Oc3c(C)c(O)c4c(O)c(c5c(c4c3C2=O)NC2(CCN(CC(C)C)CC2)N=5)=NC(=O)/C(C)=C\C=C\[C@H](C)[C@H](O)[C@@H](C)[C@@H](O)[C@@H](C)[C@H](OC(C)=O)[C@@H]1C	15-Feb	1 µg/mL
CCCCCCCCO/N=C1\[C@H](C)CC(C)(O)[C@H](O[C@@H]2O[C@H](C)C[C@H](N(C)C)[C@H]2O)[C@@H](C)[C@H](O[C@H]2C[C@@](C)(OC)[C@@H](OC(C)=O)[C@H](C)O2)[C@@H](C)C(=O)O[C@H](CC)[C@@](C)(O)[C@H](O)[C@H]1C	20066 (clarithromycin-susceptible)	1.56 µg/mL

3 of the rows above, restated:

compound,strain,result
CN(C)CCCN1c2ccccc2Sc2ccc(Cl)cc21,T 7360,25 µg/mL
CCNC(=O)O[C@H]1C(O[C@@H]2[C@@H](C)[C@H](O[C@H]3C[C@@](C)(OC)[C@@H](OC(C)=O)[C@H](C)O3)[C@@H](C)C(=O)O[C@H](CC)[C@@](C)(O)[C@H](O)[C@@H](C)/C(=N/OCCCC3CCCCC3)[C@H](C)CC2(C)O)O[C@H](C)C[C@@H]1N(C)C,20066,12.5 µg/mL
CC[C@H]1OC(=O)[C@H](C)[C@@H](O[C@H]2C[C@@](C)(OC)[C@@H](OC(C)=O)[C@H](C)O2)[C@H](C)[C@@H](O[C@@H]2O[C@H](C)C[C@H](N(C)C)[C@H]2OC(=O)NN(C)Cc2ccccc2)C(C)(O)C[C@@H](C)/C(=N\OCCCC2CCCCC2)[C@H](C)[C@@H](O)[C@]1(C)O,20066 (clarithromycin-susceptible),1.56 µg/mL